Measurements reported in US10934326B2, “Peripheral modifications on pocket-redesigned vancomycin analogs synergistically improve antimicrobial potency and durability” (priority 2016, dated 2021).

Tested on: VanA VRE (E. faecalis BM4166 and E. faecium ATCC BAA-2317)
Assay: Resistance development study (serial passaging at 0.5×MIC)
Format: cell-based, Enterococcus faecalis; Enterococcus faecium
Conditions: 0.5×MIC serial exposure, MICs monitored daily

For `CCCCCCCCCCCCCC[N+](C)(C)CCCNC(=O)[C@H]1NC(=O)[C@H]2NC(=O)[C@@H](NC(=O)[C@@H]3NC(=O)[C@H](CC(N)=O)NC(=O)[C@H](NC(=O)[C@@H](CC(C)C)NC)[C@H](O)c4ccc(c(Cl)c4)Oc4cc3cc(c4OC3OC(CO)C(O)[C@H](O)[C@@H]3O[C@H]3CC(C)(N)[C@H](O)[C@H](C)O3)Oc3ccc(cc3Cl)[C@H]2O)c2ccc(O)c(c2)-c2c(O)cc(O)cc21` (stereo partly shown) [Compound 12], the “emergence of resistance on serial passaging” value was “emerged most rapidly and was pronounced”.
